Data source: PubChem BioAssay AID1259414 (Drosophila RNAi Screening Center, 2018)
The deposit covers about 24,000 reagents; shown is a random part of those that have a named target and a result. Over the whole deposit, about 1,210 (5%) are marked active. 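Inactive calls also include excluded dsRNAs with several or no targets, genes unexpressed in JW18, and well A1, regardless of score.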 Entries without a mark were called inactive. Names joined by + are all predicted targets of the reagent.

Assay: 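Host factors increasing or decreasing Wolbachia levels in cultured fly cells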 (primary screen)
System: Drosophila JW18 cells infected with Wolbachia
Reagents: long dsRNA against Drosophila genes, 0.25 µg dsRNA per well of a 384-well plate
Duration: 5 days
Conditions: cells persistently infected with Wolbachia before knock-down; no added drug
Read-out: 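Automated imaging of bacterial rRNA staining divided by host cell count, reported as plate-normalised robust z-score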
Reading the numbers: Wolbachia per cell robust z: higher = more Wolbachia per host cell than the plate typical
Rule for the call: 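Hit when robust z is 1.5 or more, or -1.5 or less, in at least two of three replicates; excludes dsRNAs with several or no targets, genes not expressed in JW18 and well A1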

target gene,PubChem SID,"Wolbachia per cell robust z, rep 1","Wolbachia per cell robust z, rep 2","Wolbachia per cell robust z, rep 3"
CadN (Cadherin-N),SID104183078,-0.114,0.897,-0.127
CadN (Cadherin-N),SID104205912,-0.172,0.942,0.862
clt (cricklet),SID104184413,-0.18,-0.926,0.345
MFS9 (Major Facilitator Superfamily Transporter 9),SID104195352,0.106,0.328,-2.63
CG8891,SID104182912,-6.24,-0.772,-0.207
CG8891,SID104206852,-1.31,-0.296,-1.04
CG34456,SID104218804,0.427,0.473,0.828
CG4477,SID104190217,-2.87,1.21,0.979
CG17564,SID104182418,0.436,0.93,1.09
CG17564,SID104205086,-0.828,0.385,1.18
Arms (Ankyrin repeat-rich membrane spanning),SID104183648,-0.0677,-0.656,0.314
Arms (Ankyrin repeat-rich membrane spanning),SID104183649,-0.524,-1.08,-0.377
Arms (Ankyrin repeat-rich membrane spanning),SID104183844,-1.89 (active),-2.21,0.348
Arms (Ankyrin repeat-rich membrane spanning),SID104184048,1.58,0.652,1.04
Arms (Ankyrin repeat-rich membrane spanning),SID104206915,-0.17,-0.349,-0.592
CG9876,SID104184378,0.225,1.12,-4.19
CG13074,SID104189749,-1.21,0.368,0.281
PGRP-SC1b (Peptidoglycan recognition protein SC1b),SID104187007,1.07,-0.324,-0.476
CG9132,SID104199951,0.124 (active),-6.61,-8.13
CG30047,SID104185132,-1.21,0.594,0.696
CG18336,SID104186126,0.432,-2.51,-0.792
CG18635,SID104186572,-0.181,-1.59,0.224
CG18635,SID104204515,0.0472,-0.832,0.316
CG7443,SID104196036,1.81,1.06,0.714
CG13833,SID104194475,-0.803,0.254,-5.79
CG17124,SID104182372,-0.985,0.354,-6.69
CG17124,SID104207683,0.167,-2.61,-1.07
PNPase (Polynucleotide phosphorylase),SID104194096,-1.38,-0.579,-0.85
cup,SID104183308,-0.538,1.78,1.62
cup,SID104203292,0.487,0.509,-0.4
CG12470,SID104198412,0.371,0.668,-1.48
Ge-1,SID104182730,-1.87,-1.64,-0.872
Ge-1,SID104207371,0.83,1.5,2.36
awd (abnormal wing discs),SID104196698,-4.84,-1.39,-0.499
awd (abnormal wing discs),SID104218301,-0.409,-0.17,0.749
CG3500,SID104184171,-1.03,0.922,0.402
CG3500,SID104205158,0.493,-0.617,-1.52
CG5089,SID104186706,0.833,0.616,-0.456
CG5089,SID104208633,-0.0678,-0.295,-0.2
parvin,SID104199260,-1.5 (active),-1.66,-3.84
parvin,SID104207500,0.194,-0.344,1.17
gd (gastrulation-defective),SID104200128,-5.06,0.421,-0.764
Chchd3 (Coiled-coil-helix-coiled-coil-helix domain containing 3),SID104196773,0.797,0.888,1.42
Chchd3 (Coiled-coil-helix-coiled-coil-helix domain containing 3),SID104204995,0.198,0.994,0.391
Ns4 (Nucleostemin 4),SID104182991,-2.52,0.234,-1.14
Ns4 (Nucleostemin 4),SID104205774,-0.00428,-0.947,-1.59
CG17568,SID104182420,-0.404,-0.153,0.691
CG3618,SID104191538,0.274,-0.221,0.481
CG42676,SID104188184,-0.61,-0.982,-0.702
CG42676,SID104202758,-0.377,-0.229,1.04
CR43670 + CR43669 + grp + 1 more,SID104183333,1.59,1.38,0.789
Pld (Phospholipase D),SID104184646,0.181,-0.797,0.805
Pld (Phospholipase D),SID104203317,1.34,0.38,0.396
CG31636,SID104182068,0.717,0.112,-4.54
CG31636,SID104203475,1.67,0.868,1.24
CG18368,SID104186523,0.194,-0.742,0.745
CG3014,SID104195250,0.408,-1.63,0.0146
CG12567,SID104215502,1.49,1,-0.541
CG4408,SID104195366,-13.1,0.167,-0.997
Prosap,SID104186174,-0.762,0.972,-0.995
Prosap,SID104186873,0.55,-0.153,-0.251
Miga (Mitoguardin),SID104197613,-5.1,-0.389,0.855
CG33267,SID104188912,-0.0574,-0.726,-0.464
Task6 (TWIK-related acid-sensitive K[+] channel 6),SID104196322,-0.929,0.0128,-7.29
CG31680,SID104201512,-2.16,-1.07,-0.468
SAK (Sak kinase),SID104191671,-0.969,-4.99,-0.563
SAK (Sak kinase),SID104202686,1.41,-0.089,0.712
SAK (Sak kinase),SID104208005,0.451,0.241,0.686
